Here are results for one compound from paper PMC9505826, “A Peptide Inhibitor of the Human Cytomegalovirus Core Nuclear Egress Complex” (Pharmaceuticals, 2022).

The data set relates to HCMV AD169. In kind it is cell-based, human cytomegalovirus (HCMV strain AD169). The protocol: Primary human foreskin fibroblasts (HFFs) were cultivated in minimal essential medium (MEM). Cell culture media were supplemented with 1× GlutaMAXTM (35050038, Thermo Fisher Scientific), […] gentamicin and 10% fetal bovine serum (FBS, F7524, Sigma Aldrich). All cells were incubated at 37 °C, 5% CO2 and 80% humidity. For infection with human cytomegalovirus (HCMV strain AD169), 2 × 10^5 HFFs were seeded in 12-well plates for 1 day (d) prior to infection at a multiplicity of infection (MOI) of 0.1. After 90 min of viral absorption, cells were incubated with peptides in the culture media media, which was supplemented with 2.5% FBS, 1× GlutaMAX^TM and 10 µg/mL gentamicin, at the indicated concentrations at 37 °C for 4–8 days. Viral supernatants were collected at 4, 6 and 8 days post-infection (d.p.i.).
HFFs were seeded in 12-well plates, used for HCMV infection at a MOI of 0.1 and treated with the indicated concentrations of each peptide. […] The amount of extracellular viral genomic loads was assessed in […] of each sample by real-time PCR (TaqMan-PCR). Two primers, namely 5′CMV ([…]) and 3′CMV ([…]), which anneal to a sequence within the major immediate early gene region of HCMV, were obtained to amplify and quantify the viral genome. […] HCMV genome equivalents from peptide-treated viral supernatants were calculated as % of the negative control.

As for `CC[C@H](C)[C@H](NC(=O)[C@H](C)NC(=O)[C@H](CCSC)NC(=O)[C@H](CCCCN)NC(=O)[C@H](CCSC)NC(=O)[C@H](CCSC)NC(=O)[C@H](CC(N)=O)NC(=O)[C@H](CC(C)C)NC(=O)[C@H](Cc1ccc(O)cc1)NC(=O)[C@H](CCCCN)NC(=O)[C@H](CC(C)C)NC(=O)[C@H](CCC(=O)O)NC(=O)[C@H](CC(C)C)NC(=O)[C@H](CCC(=O)O)NC(=O)[C@@H]1CCCN1C(=O)[C@H](Cc1c[nH]cn1)NC(=O)[C@H](CCC(=O)O)NC(=O)[C@H](CCCNC(=N)N)NC(=O)[C@H](Cc1ccccc1)NC(=O)[C@@H](NC(=O)[C@H](CC(=O)O)NC(=O)[C@H](Cc1c[nH]cn1)NC(=O)[C@H](CC(C)C)NC(=O)[C@H](CC(=O)O)NC(=O)[C@H](Cc1c[nH]cn1)NC(=O)[C@H](CC(C)C)NC(=O)[C@@H](NC(=O)[C@H](CC(C)C)NC(=O)COCCOCCNC(=O)[C@@H]1CCCN1C(=O)[C@@H]1CCCN1C(=O)[C@H](CCCNC(=N)N)NC(=O)[C@H](CCCNC(=N)N)NC(=O)[C@H](CCCNC(=N)N)NC(=O)[C@H](CCC(N)=O)NC(=O)[C@H](CCCNC(=N)N)NC(=O)[C@H](CCCNC(=N)N)NC(=O)[C@H](CCCCN)NC(=O)[C@H](CCCCN)NC(=O)[C@H](CCCNC(=N)N)NC(=O)CNC(=O)[C@H](Cc1ccc(O)cc1)NC(=O)COCCOCCNC(=O)[C@H](CCCNC(=N)N)NC(=O)[C@H](CCC(N)=O)NC(=O)[C@H](CCCNC(=N)N)NC(=O)[C@H](CCCNC(=N)N)NC(=O)[C@H](CCCCN)NC(=O)[C@H](CCCNC(=N)N)NC(=O)[C@H](CC(C)C)NC(=O)[C@H](CC(C)C)NC(=O)[C@H](CO)NC(=O)[C@H](CCCNC(=N)N)NC(C)=O)[C@@H](C)O)[C@@H](C)CC)C(=O)N[C@H](C(N)=O)[C@@H](C)O` [NLS-CPP-Hook], the “SI, selectivity index (CC50/EC50)” value (CC50 (HFF, Neutral Red) / EC50 (HCMV qPCR)) turned out to be 7.9. Further, the “EC50 relative to the IC50 value of the hook peptide for inhibition of the pUL50–pUL53 interaction in vitro” value (EC50 of NLS-CPP-Hook (Table 2) versus IC50 of the hook peptide (Table 1)) is “approximately 45 fold”.
